Laboratory results: US7763751B2 (priority 2003, dated 2010)

Target: PrP106-126 (Homo sapiens, UniProt P04156)
Test: Inhibition of PrP 106-126 spontaneous aggregation (HPLC assay)
Conditions: for potency in inhibiting PrP106-126 fibrils as compared to compound (3): comparison with known compound (3); for anti-aggregating properties against PrP106-126: in words; for IC50: read-out: PrP106-126 Anti-aggregation (HPLC assay) IC50, peptide 500 μM, pH 7.4, 24 h at 37° C.

| Molecule | potency in inhibiting PrP106-126 fibrils as compared to compound (3) | anti-aggregating properties against PrP106-126 | IC50 [µM] |
| --- | --- | --- | --- |
| CONC(C)Cc1ccc(O)c(O)c1 (stereo not shown) [Compound 1, N-(1-methyl-2-(3,4-dihydroxy-phenyl)-ethyl)-O-methyl-hydroxylamine] | equally potent | significant anti-aggregating properties | 76 |
| CCCN(OCC)C1CCc2c(ccc(O)c2O)C1 (stereo not shown) [Compound 2, N-(5,6-dihydroxy-1,2,3,4-tetrahydro-naphthalene-2-yl)-N-propyl-O-ethyl-hydroxylamine] | significantly more potent | significant anti-aggregating properties | 20 |
| trans-N-(5,8-hydroxy-3-methyl-1,2,3,4-tetrahydro-naphtalene-2yl)-N,N-dipropyl-amine | – | – | 75 |
